Measured values from several laboratories, pooled; numbers as filed in NIAID ChemDB.

Common to all: enzyme or target tests

ICn is the concentration giving n% inhibition.

smiles	protein	species	strain	read-out	dose	value
COc1cccc2c1C(=O)c1c(O)c3c(c(O)c1C2=O)C[C@@](O)(C(C)=O)C[C@@H]3O[C@H]1C[C@H](N)[C@H](O)[C@H](C)O1	NTPase/helicase	Japanese encephalitis virus	-	IC50	-	100 µM
Nc1ncnc2c1ncn2[C@@H]1O[C@H](COC(=O)c2ccc(S(=O)(=O)F)cc2)[C@@H](O)[C@H]1O	NTPase/helicase	Japanese encephalitis virus	-	inhibition	300 µM	29%
CC(C)(Oc1ccc2[nH]cc(C[C@H](NC(=O)c3ccc4c(c3)nc(-c3ccoc3)n4C3CCCCC3)C(=O)O)c2c1)C(=O)O	RNA-dependent RNA polymerase	Poliovirus	-	IC50	-	>25 µM
CCCC(CCC)Oc1cc(C(=O)O)ccc1NC(C)=O	Neuraminidase	Influenza A virus	H1N9	IC50	-	230 µM
O=C(O)c1ccc2c(c1)nc(-c1cc(Br)cs1)n2C1CCCCC1	RNA-dependent RNA polymerase	Poliovirus	-	IC50	-	>25 µM
CCC(CC)Oc1cc(C(=O)O)ccc1NC(C)=O	Neuraminidase	Influenza A virus	H1N9	IC50	-	37 µM
COC(=O)[C@H](Cc1cn(C)c2ccc(OCC(=O)O)cc12)NC(=O)c1ccc2c(c1)nc(-c1ccoc1)n2C1CCCCC1	RNA-dependent RNA polymerase	Poliovirus	-	IC50	-	>25 µM
CC(=O)NC(C(=O)N1CCCC1)[C@H]1CC(C(=O)O)C[C@@H]1N=C(N)N	Neuraminidase	Influenza A virus (H6N2)	-	IC50	-	0.47 µM
O=C(NCCc1ccc(O)cc1)c1ccc2c(c1)nc(-c1ccoc1)n2C1CCCCC1	RNA-dependent RNA polymerase	Poliovirus	-	IC50	-	>25 µM
CCCCC(C)NC(=O)C(NC(C)=O)[C@H]1CC(C(=O)O)C[C@@H]1N=C(N)N	Neuraminidase	Influenza A virus (H6N2)	-	IC50	-	8.7 µM
CC(=O)Nc1c(O)cc(C(=O)O)cc1[N+](=O)[O-]	Neuraminidase	Influenza A virus	N2 (A/TOKYO/67)	IC50	-	750 µM
CC(=O)NC(C(=O)N1CCCCC1C)[C@H]1CC(C(=O)O)C[C@@H]1N=C(N)N	Neuraminidase	Influenza A virus (H6N2)	-	IC50	-	0.24 µM
O=C(OC[C@H]1O[C@@H](n2cnc3c(=O)[nH]cnc32)[C@H](O)[C@@H]1O)c1ccc(S(=O)(=O)F)cc1	NTPase/helicase	Japanese encephalitis virus	-	inhibition	300 µM	<0.5%
CCCN(CC1CC1)C(=O)C(NC(C)=O)[C@H]1CC(C(=O)O)C[C@@H]1N=C(N)N	Neuraminidase	Influenza A virus (H6N2)	-	IC50	-	0.2 µM
COC(=O)[C@H](Cc1ccc(C(N)=O)cc1)NC(=O)c1ccc2c(c1)nc(-c1ccoc1)n2C1CCCCC1	RNA-dependent RNA polymerase	Poliovirus	-	IC50	-	>25 µM

Percent inhibition refers to the dose given; in toxicity tests it is the harm to the cells. Rows are shuffled and stem from different studies. Blank or dashed fields: not listed here.